Values quoted from earlier work as cited in patent US20210270830A1, “BREVETOXIN ASSAY DEVICE, SYSTEM, AND METHOD” (published 2021).

System: MARBIONC Development Group, LLC polyclonal antibody (anti-BTX pAb)
Conditions: statement in text on the approved pAb ELISA kit

For BTX-6, which “Detection by the current approved ELISA kit” value is on record?
Its value is “not been found to detect”.

Which “Detection by the current approved ELISA kit” value does the source give for BTX-B4 here?
Its value is “not been found to detect”.
